Measured values from several laboratories, pooled; numbers as filed in NIAID ChemDB.

Shared fields: toxicity to cultured cells; cells: VERO; read-out: CC50

Two numbers with a dash give a range or band. Rows are shuffled and stem from different studies. An empty or dashed field is not shown. CCn is the concentration with n% toxicity to the cells.

compound,read by,value
Cc1cn([C@@H]2O[C@H](CO)[C@@H](O)[C@@H]2F)c(=O)[nH]c1=O,-,7.9 µM
CN1c2c(-c3ccccc3)nn(CC(=O)N/N=C/c3cccc(Br)c3)c2-c2ccccc2S1(=O)=O,-,>100 µM
O=C(NCc1ccc(Cl)cc1)c1c[nH]c2c(F)cccc2c1=O,-,90 µM
CC(C1=NNC(=Nc2cccnc2)SC1)N1C(=O)c2ccccc2C1=O,-,557 µg/mL
N#Cc1ccc(Sc2cc3ccccc3[n+](CCCCCC3CCCCC3)c2)cc1,neutral red,>10 µg/mL
O=c1[nH]c(=O)n([C@@H]2O[C@H](CO)[C@@H](O)[C@H]2O)cc1-n1cc(-c2cc3cccc4c5cccc6cccc(c(c2)c34)c65)nn1,MTT,>20 µM
Cc1cc2n[nH]c(Cl)c2cc1NS(=O)(=O)CCCCF,-,>160 µM
FC(F)(F)c1cccc(Sc2cc3ccccc3[n+](CCCCCc3ccccc3)c2)c1,neutral red,>10 µg/mL
CC(C1=NN=C(N(C)c2ccccc2)SC1)N1C(=O)c2ccccc2C1=O,-,192 µg/mL
[N-]=[N+]=NC(CBr)c1cn(CCC(CO)CO)c(=O)[nH]c1=O,-,>540 µM
O=S(=O)(CCCC(F)(F)F)Nc1ccc2n[nH]c(Cl)c2c1,-,150 µM
Cc1ccc(N=C2NN=C(C(C)N3C(=O)c4ccccc4C3=O)CS2)cc1,-,192 µg/mL
C[C@]12CC[C@@H]3c4ccc(OCC#Cc5cn([C@H]6C[C@H](O)[C@@H](CO)O6)c(=O)[nH]c5=O)cc4CC[C@H]3[C@@H]1CCC2=O,MTT,150 µM
CC1(C)C=Cc2c(ccc3oc4ccccc4c23)O1,-,80 µg/mL
NC(=S)NC1N=C(c2ccccc2)SN1,-,>200 µg/mL
CC(C1=NNC(=NC2CCCCC2)SC1)N1C(=O)c2ccccc2C1=O,-,192 µg/mL
CC1(C)CCc2c(ccc3oc4ccccc4c23)O1,-,100 µg/mL
CN(C(=O)Nc1ccc(N2CCOCC2)cc1)c1nc(Cl)c(S(=O)(=O)N(C)C)s1,-,250 µM
CCCCCCC[n+]1ccc2cc(OC)c(OC)c3c2c1C=CN3,-,3.9 µM
CN(C)c1cccc(-c2cc(C(F)(F)F)nc3c(C(F)(F)F)cccc23)c1,-,39 µM
CCn1cc(C(=O)O)c(=O)c2cc(F)c(N3CCN(CC(C)=O)CC3)c(F)c21,-,>10 µg/mL
COc1ccccc1-c1cc(C(F)(F)F)nc2c(C(F)(F)F)cccc12,-,95 µM
CN1CCN(C(=O)c2ccc3c(NCCc4c[nH]c5ccccc45)c4ccccc4nc3c2)CC1,-,50 µM
CNS(=O)(=O)c1sc(N(C)C(=O)Nc2ccc(-c3ccccc3)cc2)nc1C,-,250 µM
O=C1CC[C@H](O)c2cc(O)cc(O)c21,-,24.64 µg/mL
Cc1c(Cl)ccc2cc(/C=C/C(=O)c3ccc(Br)cc3)c(Cl)nc12,MTT,28.07 µM
CC1(C)CCc2cc(C(=O)c3ccccc3)ccc2O1,-,75 µg/mL
CO[C@H]1CC(=O)c2c(O)cccc2[C@H]1O,-,26.59 µg/mL
COc1ccc2c(c1)[C@@H]1C[C@]1(C(=O)N1[C@@H]3CC[C@H]1CN(C)C3)Cn1c-2c(C2CCCCC2)c2ccc(C(=O)NS(=O)(=O)N(C)C)cc21,resazurin,29 µM
CCOC(=O)C1=C(C)NC(C)=C(C(=O)OCC)C1c1cn(-c2ccccc2)nc1-c1ccc(F)cc1,MTT,>10 µg/mL
O=c1ccn([C@@H]2O[C@H](CO)[C@@H](O)[C@@H]2F)c(=O)[nH]1,-,2.9 µM
CC(C)=CCc1c(O)ccc2[nH]c3ccc(C=O)cc3c12,-,>102 µg/mL
Nc1ncnc2c1ncn2[C@@H]1O[C@@H](CO)[C@H](O)C1(F)F,-,>100 µM
CCOc1ccc(-c2cc(N3CCCCC3)no2)c(O)c1,-,>347 µM
FC(F)(F)c1ccccc1Sc1cc2ccccc2[n+](CCCCCc2ccccc2)c1,neutral red,>10 µg/mL
C=CCN(CCNC/C=C(\C)CCC=C(C)C)C1CCCC1,MTS,51 µM
CN(C)c1ccc(/C=N/NC(=O)Cn2nc(-c3ccccc3)c3c2-c2ccccc2S(=O)(=O)N3C)cc1,-,>100 µM
CCN(CC)c1cc(-c2ccc(OC)cc2O)on1,-,>381 µM
CC(C1=NNC(=Nc2ccc(F)cc2)SC1)N1C(=O)c2ccccc2C1=O,-,64.15 µg/mL
CC1(C)C=C2[C@H]3CC[C@@H]4[C@@]5(C)CCC(=O)C(C)(C)[C@@H]5CC[C@@]4(C)[C@]3(C)CC[C@@]2(C(=O)O)CC1,-,40 µg/mL
COc1ccc2[nH]c3ccc(C=O)cc3c2c1,-,>102 µg/mL
O=c1[nH]c(=O)n([C@@H]2O[C@H](CO)[C@@H](O)[C@@H]2F)cc1I,-,10.3 µM
CC(C1=NN=C(N(C(=O)c2ccccc2)c2ccccc2)SC1)N1C(=O)c2ccccc2C1=O,-,192 µg/mL
c1ccc(C(CCNCCN[C@H]2C[C@@H]3CC[C@H]2C3)c2ccccc2)cc1,MTS,25 µM
CCCCC1C(=O)N(c2ccccc2)N(c2ccc(O)cc2)C1=O,MTT,>200 µM
C/C=C/c1cn([C@H]2C[C@H](O)[C@@H](CO)S2)c(=O)[nH]c1=O,-,>100 µM
Cc1c(Cl)ccc2cc(/C=C/C(=O)c3cccc(Br)c3)c(Cl)nc12,MTT,34.01 µM
COc1cc2ccnc3c2c(c1OCCCCCCCCCOc1c(OC)cc2ccnc4c2c1N(C)C=C4)N(C)C=C3,-,1.3 µM
COc1ccc(/C=N/NC(=O)Cn2nc(-c3ccccc3)c3c2-c2ccccc2S(=O)(=O)N3C)cc1,-,15.4 µM
C#Cc1cn([C@H]2C[C@H](O)[C@@H](CO)S2)c(=O)[nH]c1=O,-,33 µM
Fc1ccccc1Sc1cc2ccccc2[n+](CCCCCc2ccccc2)c1,neutral red,>10 µg/mL
COC1=CC(=O)c2c(cc(OC)c(C(C)C3=C(O)c4c(cc(O)c(C(C)=O)c4O)C(=O)C3=O)c2O)C1=O,-,5.98 µg/mL
O=C(O)CN1CCCC[C@H]1[C@@H](O)c1cc(C(F)(F)F)nc2c(C(F)(F)F)cccc12,-,>128 µM
O=C(Cn1cc(C#Cc2ccc3c4cccc5cccc(c6cccc2c63)c54)c(=O)[nH]c1=O)NCCCCO,MTT,2–6 µM
C/C1=C\C=C\C2(C)C=C(CO[C@H]3O[C@H](CO)[C@H](O)[C@H](O)[C@H]3O)C(C)CC23OC([O-])C(C3=O)C(O)/C=C/C2(C)C=C(CO)C(C)CC23OC([O-])C(C3=O)C(O)/C(C)=C/C=C/C2C=C(CO[C@H]3O[C@H](CO)[C@H](O)[C@H](O)[C@H]3O)C(C)CC23OC([O-])C(C3=O)C(O)/C=C/C2(C)C=C(CO)C(C)CC23OC([O-])C(C3=O)C1O,-,>100 µg/mL
Cc1c(CN2CCSCC2)cc(-c2ccc(F)cc2)n1-c1ccc(F)cc1,-,8 µg/mL
Cc1cn([C@H]2O[C@@H](CO)[C@H](O[Si](C)(C)C(C)(C)C)C2(F)F)c(=O)[nH]c1=O,-,>100 µM
CCCCCCCCCN1C=Cc2nccc3cc(OC)c(OC)c1c23,-,2.1 µM
CSCc1cn([C@H]2C[C@H](O)[C@@H](CO)S2)c(=O)[nH]c1=O,-,>500 µM
CCOC(=O)C1=C(C)NC(C)=C(C(=O)OCC)C1c1cn(-c2ccccc2)nc1-c1ccc(O)cc1,MTT,4.27 µg/mL
CCCN1C=Cc2nccc3cc(OC)c(OC)c1c23,-,74.3 µM
C[C@H]1/C=C/[C@@]2(C)CC[C@@H](C(C)(C)O)[C@@H]2[C@@H](O)C[C@](C)(O)/C=C/C1,-,184 µM
CN1c2c(-c3ccccc3)nn(CC(=O)N/N=C/c3ccccc3[N+](=O)[O-])c2-c2ccccc2S1(=O)=O,-,45.8 µM
CC1(C)C=Cc2cc(C(O)c3ccccc3)ccc2O1,-,16 µg/mL
CCOC(=O)C1=C(C)NC(C)=C(C(=O)OCC)C1c1cn(-c2ccccc2)nc1-c1ccccc1,MTT,>10 µg/mL
COc1cc2ccnc3c2c(c1O)N(C)C=C3,-,2.1 µM
CN1CCN(/N=C/c2cc(C(F)(F)F)nc3c(C(F)(F)F)cccc23)CC1,-,16 µM
O=c1[nH]c(=O)n([C@H]2C[C@H](O)[C@@H](CO)O2)cc1-n1cc(-c2ccccc2)nn1,MTT,>20 µM
Nc1cccc(-c2cc(C(F)(F)F)nc3c(C(F)(F)F)cccc23)c1,-,45 µM
COC(=O)c1ccc2[nH]c3ccccc3c2c1,-,>102 µg/mL
Fc1cccc(Sc2cc3ccccc3[n+](CCCCCc3ccccc3)c2)c1,neutral red,>10 µg/mL
Cc1ccc(/C=C/c2cc3ccc(Cl)c(C)c3nc2Cl)s1,MTT,39.9 µM
CC(C1=NN=C(N(Cc2ccccc2)c2ccccc2)SC1)N1C(=O)c2ccccc2C1=O,-,192 µg/mL
CCc1c(O)c2c(c(O)c1OC)C(=O)C(OC)CC2,-,11.4 µg/mL
CCN(CC)c1cc(-c2ccc(OC)cc2OC)on1,-,>362 µM
Cc1c(CN2CCSCC2)cc(-c2ccc(F)cc2)n1-c1ccccc1,-,4 µg/mL
COc1ccc(-c2cc(C(F)(F)F)nc3c(C(F)(F)F)cccc23)cc1,-,45 µM
Oc1cccc(Sc2cc3ccccc3[n+](CCCCCC3CCCCC3)c2)c1,neutral red,>10 µg/mL
O=C1c2ccccc2C(=O)N1CCCC1=NNC(=Nc2ccccc2)SC1,-,192 µg/mL
CN1CCN(C(=O)c2ccc3nc4ccccc4c(Oc4ccccc4)c3c2)CC1,-,40 µM
Oc1ccc(Sc2cc3ccccc3[n+](CCCCCC3CCCCC3)c2)cc1,neutral red,>10 µg/mL
CCCCCCCCCCCCN1C=Cc2nccc3cc(OC)c(OC)c1c23,-,<1 µM
CCn1cc(C(=O)O)c(=O)c2cc(F)c(N3CCN(CC(=O)c4ccccc4)CC3)c(F)c21,-,>10 µg/mL
CC1(C)C=Cc2cc3oc4ccccc4c3c(Br)c2O1,-,10 µg/mL
C/C1=C\C=C\C2(C)C=C(CO[C@H]3O[C@H](CO)[C@H](O)[C@H](O)[C@H]3O)C(C)CC23OC([O-])C(C3=O)C(O)/C=C/C2(C)C=C(CO)C(C)CC23OC([O-])C(C3=O)C(O)/C(C)=C/C=C/C2C=C(CO[C@H]3O[C@H](CO)[C@H](O)[C@H](O)[C@H]3O)C(C)CC23OC([O-])C(C3=O)C(O)/C=C/C2(C)C=C(C=O)C(C)CC23OC([O-])C(C3=O)C1O,-,>100 µg/mL
Cc1csc(/C=C/c2cc3ccc(Cl)c(C)c3nc2Cl)c1,MTT,46.78 µM
CC(=O)N(C1=NN=C(C(C)N2C(=O)c3ccccc3C2=O)CS1)c1ccccc1,-,111 µg/mL
C/C1=C\C=C\C2(C)C=C(CO)C(C)CC23OC([O-])C(C3=O)C(O)/C=C/C2(C)C=C(CO)C(C)CC23OC([O-])C(C3=O)C(O)/C(C)=C/C=C/C2C=C(CO)C(C)CC23OC([O-])C(C3=O)C(O)/C=C/C2(C)C=C(CO)C(C)CC23OC([O-])C(C3=O)C1O,-,>100 µg/mL
CC(C)(C)[Si](C)(C)O[C@H]1[C@H](CO)O[C@@H](n2ccc(N)nc2=O)C1(F)F,-,>100 µM

A second listing of 12 rows from above:

| compound | read by | value |
|---|---|---|
| CCOc1ccc(-c2cc(N3CCCCC3)no2)c(O)c1 | - | >347 µM |
| FC(F)(F)c1ccccc1Sc1cc2ccccc2[n+](CCCCCc2ccccc2)c1 | neutral red | >10 µg/mL |
| COc1ccc(-c2cc(C(F)(F)F)nc3c(C(F)(F)F)cccc23)cc1 | - | 45 µM |
| FC(F)(F)c1cccc(Sc2cc3ccccc3[n+](CCCCCc3ccccc3)c2)c1 | neutral red | >10 µg/mL |
| COC1=CC(=O)c2c(cc(OC)c(C(C)C3=C(O)c4c(cc(O)c(C(C)=O)c4O)C(=O)C3=O)c2O)C1=O | - | 5.98 µg/mL |
| CCCCCCCCCCCCN1C=Cc2nccc3cc(OC)c(OC)c1c23 | - | <1 µM |
| Fc1ccccc1Sc1cc2ccccc2[n+](CCCCCc2ccccc2)c1 | neutral red | >10 µg/mL |
| C[C@H]1/C=C/[C@@]2(C)CC[C@@H](C(C)(C)O)[C@@H]2[C@@H](O)C[C@](C)(O)/C=C/C1 | - | 184 µM |
| CN(C)c1cccc(-c2cc(C(F)(F)F)nc3c(C(F)(F)F)cccc23)c1 | - | 39 µM |
| CC1(C)C=Cc2cc3oc4ccccc4c3c(Br)c2O1 | - | 10 µg/mL |
| O=C1c2ccccc2C(=O)N1CCCC1=NNC(=Nc2ccccc2)SC1 | - | 192 µg/mL |
| CN(C(=O)Nc1ccc(N2CCOCC2)cc1)c1nc(Cl)c(S(=O)(=O)N(C)C)s1 | - | 250 µM |